Anti-infective test results gathered from many reports (values: NIAID ChemDB through PubChem).

All rows: whole-cell or culture tests

ECn: concentration that inhibits the pathogen or its effect by n%. Lines come from different laboratories, so protocols vary. a–b is a range or a potency band. Percent inhibition refers to the dose given; in toxicity tests it is the harm to the cells. An empty or dashed field is not shown.

compound	species	strain	cell line	read by	endpoint	tested at	value
CC(=O)N[C@H]1[C@H]([C@H](O)[C@H](O)CO)OC(C(=O)O)=C[C@@H]1N=C(N)N	Influenza A virus	H1N1 A/TEXAS/36/91	MDCK		EC50		0.22 µM
CCOC(=O)c1nc2cc(F)c(F)cc2[nH]c1=O	Influenza virus	Maryland B	BSC-1/HELA	plaque count	EC50		<10 µg/mL
CC(N)C12CC3CC(CC(C3)C1)C2	Influenza A virus	Influenza A H3N2 isolate 86	MDCK	ELISA	EC50		13.2 µg/mL
CC(C)(CO)CNc1cc(Cl)nc(N)n1	Influenza B virus	B/GIFU/2/73	MDCK	plaque count	EC50		220 µM
NC12CC3CC(CC(C3)C1)C2	Influenza B virus	B/LEE	CEF	plaque count	inhibition	46.8 µg/mL	0%
CCC(CC)[C@H](NC(C)=O)[C@@H]1C[C@@H](C(=O)O)C[C@H]1N=C(N)N	Influenza A virus	Influenza A/Beijing/32/92 (H3N2)	MDCK		EC50		0.14 µM
Nc1nccc(NCC2(CO)CC(Cc3ccccc3)C2)n1	Influenza B virus	B/GIFU/2/73	MDCK	plaque count	EC50		3–12 µM
C/C=C\[C@@H]1C[C@H](C(=O)O)N[C@H]1[C@@H](NC(C)=O)[C@](C)(CCC)OC	Influenza B virus	Isolate G26	MDCK	plaque count	EC50		<0.01 µg/mL
Nc1nc(Cl)cc(NCC2(CO)CC(OCc3ccccc3)C2)n1	Influenza B virus	B/GIFU/2/73	MDCK	plaque count	EC50		7.2–16 µM
CCC	Influenza A virus	PORT chalmers/1/73 (H3)	MDCK		EC50		>500 µM
Nc1nc(Cl)cc(NCC2(CO)CCC(O)C2)n1	Influenza B virus	B/GIFU/2/73	MDCK	plaque count	EC50		>110 µM
CCCC(CCC)C(NC(C)=O)C1C(N=C(N)N)CC(C(=O)O)C1O	Influenza A virus	H3N2 A/X-31	MDCK		EC50		<0.01 µM
Nc1nc2c(ccn2[C@@H]2C[C@H](CO)[C@@H](O)[C@H]2O)c(=O)[nH]1	Influenza A virus	Influenza A/Victoria/3/75 (H3N2)			MIC		>100 µg/mL
CCC(CC)O[C@@H]1C=C(C(=O)O)C[C@H](N)[C@H]1NC(C)=O	Influenza A virus	Influenza A/Washington/05/96 (H3N2)	MDCK	visual reading	EC50		0.03 µM
Nc1nc(Cl)c(N)c(NCC2(CO)CC(Cc3ccccc3)C2)n1	Influenza B virus	B/GIFU/2/73	MDCK	plaque count	EC50		0.17–0.23 µM

For reference, 2 entries again:

{"compound": "NC12CC3CC(CC(C3)C1)C2", "species": "Influenza B virus", "strain": "B/LEE", "cell line": "CEF", "read by": "plaque count", "endpoint": "inhibition", "tested at": "46.8 µg/mL", "value": "0%"}
{"compound": "C/C=C\\[C@@H]1C[C@H](C(=O)O)N[C@H]1[C@@H](NC(C)=O)[C@](C)(CCC)OC", "species": "Influenza B virus", "strain": "Isolate G26", "cell line": "MDCK", "read by": "plaque count", "endpoint": "EC50", "value": "<0.01 µg/mL"}